Compound potency records, mixed from different reports. Data source: NIAID ChemDB in PubChem.

Common to all: whole-cell or culture tests; species: Cryptococcus neoformans; measure: MIC50

MIC50, MIC90 and the like: level of inhibition, or share of isolates inhibited.

structure	strain or isolate	read by	result
Nc1[nH]c(=O)ncc1F	37 strains		8 µg/mL
N=C(N)c1ccc(OCCCC2CCN(CCCOc3ccc(C(=N)N)cc3)CC2)cc1	33 clinical isolates		0.0625 µg/mL
CCC(C)CC(C)CCCCCCCCC(=O)N[C@H]1C[C@@H](O)[C@H](NCCN)NC(=O)[C@@H]2[C@@H](O)CCN2C(=O)[C@H]([C@H](O)CCN)NC(=O)[C@H]([C@H](O)[C@@H](O)c2ccc(O)cc2)NC(=O)[C@@H]2C[C@@H](O)CN2C(=O)[C@H]([C@@H](C)O)NC1=O	19 isolates		32 µg/mL
CC[C@@H]([C@H](C)O)n1ncn(-c2ccc(N3CCN(c4ccc(OC[C@@H]5CO[C@@](Cn6cncn6)(c6ccc(F)cc6F)C5)cc4)CC3)cc2)c1=O	10 strains		0.25 µg/mL
CC(C(O)(Cn1cncn1)c1ccc(F)cc1F)S(C)(=O)=O	9 strains		1 µg/mL
CCCCCOc1ccc(-c2cc(-c3ccc(C(=O)N[C@H]4C[C@@H](O)[C@@H](O)NC(=O)[C@@H]5[C@@H](O)[C@@H](C)CN5C(=O)[C@H]([C@H](O)CC(N)=O)NC(=O)[C@H]([C@H](O)[C@@H](O)c5ccc(O)c(OS(=O)(=O)O)c5)NC(=O)[C@@H]5C[C@@H](O)CN5C(=O)[C@H]([C@@H](C)O)NC4=O)cc3)no2)cc1		broth dilution	>32 µg/mL
CCN1CCC(O)(/C=C/c2ccc(Cl)cc2)C(C(=O)/C=C/c2ccc(Cl)cc2)C1	15 strains		1 µg/mL
CCCCCCCCOc1ccc(-c2ccc(C(=O)NC3CC(NCCN)CNC(=O)[C@@H]4[C@@H](O)[C@@H](C)CN4C(=O)[C@@H](CO)NC(=O)[C@H]([C@H](O)Cc4ccccc4)NC(=O)[C@@H]4C[C@@H](O)CN4C(=O)[C@H]([C@@H](C)O)NC3=O)cc2)cc1	30 isolates		8 µg/mL
CCCCCCCCOc1ccc(C(=O)NC2C[C@@H](O)[C@@H](O)NC(=O)C3[C@@H](O)[C@@H](C)CN3C(=O)C(C(C)O)NC(=O)C([C@H](O)[C@@H](O)c3ccc(O)cc3)NC(=O)C3C[C@@H](O)CN3C(=O)C(C(C)O)NC2=O)cc1	12 strains		>40 µg/mL
CCC(C)n1ncn(-c2ccc(N3CCN(c4ccc(OC[C@H]5CO[C@](Cn6cncn6)(c6ccc(Cl)cc6Cl)O5)cc4)CC3)cc2)c1=O	373 isolates		0.25 µg/mL
COc1cc(O)c2c(c1)C(=O)c1c(cc3c(c1O)-c1c(cc(C)c(C(=O)NC(CO)C(=O)O)c1O)[C@H](OC1OC(C)C(O)C(OC4OCC(O)C(O)C4O)C1O)C3O)C2=O	15 isolates		2 µg/mL
CC(C)=CCc1c(O)ccc(C(=O)/C=C/c2ccc(O)cc2)c1O			7 µg/mL
CN(CCc1ccc(-c2csc(-c3ccc(Cl)cc3)n2)cc1)CC(C)(C)N			4 µg/mL
CCCCCOc1ccc(-c2ccc(-c3ccc(C(=O)N[C@H]4C[C@@H](O)[C@@H](O)NC(=O)[C@@H]5[C@@H](O)[C@@H](C)CN5C(=O)[C@H]([C@H](C)O)NC(=O)[C@H]([C@H](O)[C@@H](O)c5ccc(O)cc5)NC(=O)[C@@H]5C[C@@H](O)CN5C(=O)[C@H]([C@H](C)O)NC4=O)cc3)cc2)cc1	15 strains		>8 µg/mL
Cc1ccc(-c2c3c(N)c4c(nc3nc3c2c(C)nn3-c2ccccc2)CCCC4)cc1	ATCC 32264	broth dilution / absorbance	125 µg/mL
Nc1[nH]c(=O)ncc1F	42 isolates (HIV+)		2 µg/mL
CCCCCCCCCCCCCCCC(=O)N[C@H]1C[C@@H](O)[C@@H](O)NC(=O)[C@@H]2[C@@H](O)[C@@H](C)CN2C(=O)[C@H]([C@@H](C)O)NC(=O)[C@H]([C@H](O)[C@@H](O)c2ccc(O)cc2)NC(=O)[C@@H]2C[C@@H](O)CN2C(=O)[C@H]([C@@H](C)O)NC1=O	YC203		>2.5 µg/mL
C[C@@H](c1nc(-c2ccc(C#N)cc2)cs1)[C@](O)(Cn1cnnc1)c1ccc(F)cc1F	32 isolates		0.008 µg/mL
Nc1[nH]c(=O)ncc1F	12 strains		8 µg/mL
COc1cc(/C=C2\SC(=S)NC2=O)ccc1OCC(O)(Cn1cncn1)c1ccc(F)cc1F	ATCC 34664	broth dilution	16 µg/mL
COc1ccc(-c2c3c(N)c4c(nc3nc3c2c(C)nn3-c2ccccc2)CCCCC4)cc1	ATCC 32264	broth dilution / absorbance	250 µg/mL
C[C@H]1[C@H](O)[C@@H](C)/C=C/C=C/C=C/C=C/C=C/C=C/C=C/[C@H](O[C@@H]2O[C@H](C)[C@@H](O)[C@H](N)[C@@H]2O)C[C@@H]2O[C@](O)(C[C@@H](O)C[C@@H](O)CC[C@H](O)[C@@H](O)C[C@@H](O)CC(=O)O[C@H]1C)C[C@H](O)[C@H]2C(=O)O	ATCC 36556		0.49 µg/mL
CCCCCCCCCCCCCCCC(=O)NC1CC(O)C(O)NC(=O)C2C(O)C(C)CN2C(=O)C(C(O)CC(N)=O)NC(=O)C(C(O)C(O)c2ccc(O)c(OS(=O)(=O)O)c2)NC(=O)C2CC(O)CN2C(=O)C(C(C)O)NC1=O	YC203		>2.5 µg/mL
C=C1CO[C@H]2[C@@H](C)OC(OC[C@@]34C[C@H]5[C@H](C)CC[C@@H]5[C@@]5(C=O)C[C@@H]3C=C(C(C)C)[C@@]45C(=O)O)C[C@@H]12	16 strains (serotype D)		0.5 µg/mL
CC(N1CCN(c2ccc(-n3cnnn3)cc2)C1=O)[C@](O)(Cn1cncn1)c1ccc(F)cc1F	14 strains		0.13 µg/mL
C[C@H]1[C@H](O)[C@@H](C)/C=C/C=C/C=C/C=C/C=C/C=C/C=C/[C@H](O[C@@H]2O[C@H](C)[C@@H](O)[C@H](N)[C@@H]2O)C[C@@H]2O[C@](O)(C[C@@H](O)C[C@@H](O)CC[C@H](O)[C@@H](O)C[C@@H](O)CC(=O)O[C@H]1C)C[C@H](O)[C@H]2C(=O)O	32 isolates		0.13 µg/mL
COc1cc(/C=C2\SC(=S)NC2=O)cc(OC)c1OCC(O)(Cn1cncn1)c1ccc(F)cc1F	ATCC 34664	broth dilution	16 µg/mL
Cc1nn(-c2ccccc2)c2nc3nc4c(c(N)c3c(-c3ccc(Cl)cc3)c12)CCCC4	ATCC 32264	broth dilution / absorbance	250 µg/mL
CC[C@@H]([C@H](C)O)n1ncn(-c2ccc(N3CCN(c4ccc(OC[C@@H]5CO[C@@](Cn6cncn6)(c6ccc(F)cc6F)C5)cc4)CC3)cc2)c1=O	15 strains		0.03 µg/mL
C[C@@H]([C@H](N)C(=O)N[C@H](C(=O)O)[C@H]1O[C@@H](n2ccc(=O)[nH]c2=O)[C@H](O)[C@@H]1O)[C@H](O)c1ccc(O)cn1	15 isolates		>64 µg/mL
CC[C@@H]([C@H](C)O)n1ncn(-c2ccc(N3CCN(c4ccc(OC[C@@H]5CO[C@@](Cn6cncn6)(c6ccc(F)cc6F)C5)cc4)CC3)cc2)c1=O	9 isolates		0.062 µg/mL
CCCCCOc1ccc(-c2ccc(-c3ccc(C(=O)N[C@H]4C[C@@H](O)[C@@H](O)NC(=O)[C@@H]5[C@@H](O)[C@@H](C)CN5C(=O)[C@H]([C@H](C)O)NC(=O)[C@H]([C@H](O)[C@@H](O)c5ccc(O)cc5)NC(=O)[C@@H]5C[C@@H](O)CN5C(=O)[C@H]([C@H](C)O)NC4=O)cc3)cc2)cc1	15 isolates		>10.24 µg/mL
CNCCN(C)CCc1ccc(-c2csc(-c3ccc(Cl)cc3)n2)cc1			2 µg/mL
CCC(C)n1ncn(-c2ccc(N3CCN(c4ccc(OC[C@H]5CO[C@](Cn6cncn6)(c6ccc(Cl)cc6Cl)O5)cc4)CC3)cc2)c1=O			0.0059 µg/mL
C[C@H]1[C@H](O)[C@@H](C)/C=C/C=C/C=C/C=C/C=C/C=C/C=C/[C@H](O[C@@H]2O[C@H](C)[C@@H](O)[C@H](N)[C@@H]2O)C[C@@H]2O[C@](O)(C[C@@H](O)C[C@@H](O)CC[C@H](O)[C@@H](O)C[C@@H](O)CC(=O)O[C@H]1C)C[C@H](O)[C@H]2C(=O)O	12 strains		1 µg/mL
CCS(=O)(=O)C(F)(F)C(O)(Cn1cncn1)c1ccc(F)cc1F	26 strains		0.5 µg/mL
C[C@@H](SC1COC(/C=C/C=C/c2ccc(C#N)cc2F)OC1)[C@](O)(Cn1cncn1)c1ccc(F)cc1F	22 strains		≤0.008 µg/mL
CCCCCCCCCCCCCCCCOP(=O)([O-])OCC[N+](C)(C)C			0.5 µg/mL
CCC(C)n1ncn(-c2ccc(N3CCN(c4ccc(OC[C@H]5CO[C@](Cn6cncn6)(c6ccc(Cl)cc6Cl)O5)cc4)CC3)cc2)c1=O	5 isolates		0.25 µg/mL
O=C1OCC(c2ccccc2)=C1c1ccc(OCC(O)(Cn2cncn2)c2ccc(F)cc2F)cc1	ATCC 34664	broth dilution	4 µg/mL
Cn1nc(Cc2ccc(Cl)cc2)c2ccccc2c1=O	Clinical isolate (IM 000319)	broth dilution	31.3 µg/mL
C[C@H]1[C@H](O)[C@@H](C)/C=C/C=C/C=C/C=C/C=C/C=C/C=C/[C@H](O[C@@H]2O[C@H](C)[C@@H](O)[C@H](N)[C@@H]2O)C[C@@H]2O[C@](O)(C[C@@H](O)C[C@@H](O)CC[C@H](O)[C@@H](O)C[C@@H](O)CC(=O)O[C@H]1C)C[C@H](O)[C@H]2C(=O)O	19 strains		0.25 µg/mL

Lines come from different laboratories, so protocols vary. An empty or dashed field is not shown.